Experiment [1] has as its target T1, SARS-CoV-2 N protein-RNA1 interaction (Severe acute respiratory syndrome coronavirus 2, UniProt P0DTC9). Nature of the experiment: biochemical. Particulars: IC50 for blocking the N protein-RNA1 interaction.
In experiment [2] the target is T1, SARS-CoV-2 N protein-RNA1 interaction. Particulars: read-out: IC50 for blocking the N protein-RNA1 interaction.

Where two headings read alike, the source gives them in different places.

What is called IC50 is the concentration that gives 50% inhibition. `O=C(O)C[C@@H]1C(=O)O[C@H]2[C@H](OC(=O)c3cc(O)c(O)c(O)c3)[C@@H](OC(=O)c3cc(O)c(O)c4c3[C@H]1[C@H](O)C(=O)O4)[C@H](OC(=O)c1cc(O)c(O)c(O)c1)O[C@@H]2COC(=O)c1cc(O)c(O)c(O)c1` [Chebulinic acid] had a concentration for half-maximal inhibition (IC50) in experiment [1] of 200 nM.
With Chlorophyllin A, the IC50 in experiment [2] was 10800 nM.
Same read-out and setting: for Chlorophyllin B the value was 2200 nM.

These data come from paper PMC9628480, “Discovery and structural characterization of chicoric acid as a SARS-CoV-2 nucleocapsid protein ligand and RNA binding disruptor” (Scientific Reports, 2022).
